Measured values as given in article PMC3747263 (PLoS ONE, 2013).

Protein sequences, listed by entry. Tags and fused reporters are not part of them. Residues count along the entry.
UniProt Q9HYN5, 2-115 limits assumed: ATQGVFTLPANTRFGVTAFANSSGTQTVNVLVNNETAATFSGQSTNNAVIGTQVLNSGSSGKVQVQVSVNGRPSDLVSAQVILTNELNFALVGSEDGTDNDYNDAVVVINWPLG

Target: LecB (PA-IIL) (Pseudomonas aeruginosa, UniProt Q9HYN5)
Assay: isothermal titration calorimetry
Assay type: binding
Conditions: read-out: LecB / KD; 25 °C, pH 7.5 (20 mM Tris/HCl, 150 mM NaCl, 0.03 mM CaCl2); SD below 15%; some table ligands may carry one more reducing-end sugar (italics lost)

SMILES: CC(=O)N[C@H]1[C@H]([C@H](O)[C@H](O)CO)O[C@@](O[C@H]2[C@@H](O)[C@@H](CO)O[C@@H](O[C@H]3[C@H](O[C@@H]4O[C@@H](C)[C@@H](O)[C@@H](O)[C@@H]4O)[C@@H](NC(C)=O)C(O)O[C@@H]3CO)[C@@H]2O)(C(=O)O)C[C@@H]1O (stereo partly shown)
- Kd: 5.7 µM
